Results as given in ChEMBL document CHEMBL1137295, “Discovery of HIV-1 protease inhibitors with picomolar affinities incorporating N-aryl-oxazolidinone-5-carboxamides as novel P2 ligands” (J Med Chem, 2006).
pKi: −log10 of the molar value.

Key:
[1] = target: Human immunodeficiency virus type 1 protease (Human immunodeficiency virus 1, UniProt Q72874, A71V/G73S/I84V/L10I/L63P/L90M); assay: Inhibition of HIV1 protease L10I/L63P/A71V/G73S/I84V/L90M mutant
Summary of the method: (§1)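 FRET cleavage of Arg-Glu(EDANS)-[…]DABCYL)-Arg, 1 µM. Protease desalted into 20 mM sodium acetate pH 5, about 50 nM apparent by A280. Preincubated with inhibitor in DMSO 20-30 min at room temperature. Buffer 0.1 M NaOAc, 1 M NaCl, 1 mM EDTA, 1 mM DTT, 2% DMSO, 1 mg/mL BSA, pH 4.7. Read 340/490 nm, 30 °C, ~10 min. Ki by nonlinear fit of initial velocity versus inhibitor concentration.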

[2] = target: Human immunodeficiency virus type 1 protease (Human immunodeficiency virus 1, UniProt Q72874, G48V/I54V/L10I/L63P/V82A); assay: Inhibition of HIV1 protease L10I/G48V/I54V/L63P/V82A mutant; summary of the method: as §1
[3] = target: Human immunodeficiency virus type 1 protease (Human immunodeficiency virus 1, UniProt Q72874, Q7K); assay: Inhibition of wild type HIV1 protease Q7K mutant; summary of the method: as §1
[4] = target: Human immunodeficiency virus type 1 protease (Human immunodeficiency virus 1, UniProt Q72874, D30N/L63P/N88D); assay: Inhibition of HIV1 protease D30N/L63P/N88D mutant; summary of the method: as §1

Cc1cccc(C)c1OCC(=O)N[C@@H](Cc1ccccc1)[C@@H](O)C[C@H](Cc1ccccc1)NC(=O)[C@H](C(C)C)N1CCCNC1=O [LOPINAVIR]
pKi [1]: 9.05 | pKi [2]: 8.21 | pKi [3]: 11.30 | pKi [4]: 10.40
